PubChem BioAssay AID504761, Drosophila RNAi Screening Center – 2011
Test: 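Genome-wide fly cell screen for genes dengue virus requires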 (primary screen). Cell system: D.Mel-2 cells from Drosophila. Knock-down reagent: long dsRNA against Drosophila genes. Treatment: infection with dengue virus type 2; dose and infection time not stated. Measured: 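Cells stained for dengue envelope protein and imaged; percent of infected cells per well on duplicate plates, ranked by infection, with stained nuclei counted for cell number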. Reading the numbers: infection score: higher = more virus-infected cells; cell count: higher = more cells in the well. Rule for the call: 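Very low infection ranking in both replicate wells (chance probability at most 0.065), then a retest showing infection dropped 1.5-fold or more at p below 0.05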. Meaning of the calls: active = confirmed: knock-down lowers infection; inactive = not picked or not confirmed.
The deposit covers about 22,000 reagents; below is a random part of those that have a named target and a result. In the full data, 116 (0.52%) were called active. 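Calls depend on retest data that are not deposited; infection was ranked per plate without normalising between plates; the unit of the infection score is not given.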 Raw values are not corrected between plates. Reagents against one gene are numbered here. Not given: the amount of reagent, the time to read-out.

How did the screen score scw #1?
infection score, replicate 1: 1.46; infection score, replicate 2: 2.31; cell count, replicate 1: 5955; cell count, replicate 2: 5923; outcome: inactive

Which result is listed for scw #2?
infection score, replicate 1: 2.51; infection score, replicate 2: 0.28; cell count, replicate 1: 6006; cell count, replicate 2: 6057; outcome: inactive

With Gmppb, what was measured?
infection score, replicate 1: 6.22; infection score, replicate 2: 9.27; cell count, replicate 1: 6624; cell count, replicate 2: 6613; outcome: inactive

With MED28, what does the deposit list?
infection score, replicate 1: 11.2; infection score, replicate 2: 20.5; cell count, replicate 1: 4818; cell count, replicate 2: 4953; outcome: inactive

For Fer2LCH #1, what does the deposit list?
infection score, replicate 1: 5.99; infection score, replicate 2: 4.89; cell count, replicate 1: 6595; cell count, replicate 2: 5497; outcome: inactive

With Fer2LCH #2, how do the results read?
infection score, replicate 1: 20.9; infection score, replicate 2: 14.7; cell count, replicate 1: 6255; cell count, replicate 2: 1696; outcome: inactive

With HP4, how do the results read?
infection score, replicate 1: 10.2; infection score, replicate 2: 9.43; cell count, replicate 1: 6265; cell count, replicate 2: 6033; outcome: inactive

For CG5255 #1, what does the deposit list?
infection score, replicate 1: 2.38; infection score, replicate 2: 4.84; cell count, replicate 1: 6836; cell count, replicate 2: 1548; outcome: inactive

For CG5255 #2, what does the deposit list?
infection score, replicate 1: 2.41; infection score, replicate 2: 1.01; cell count, replicate 1: 6819; cell count, replicate 2: 6834; outcome: inactive

2 entries from above, reduced to “cell count, replicate 1”.
HP4: 6265
CG5255 #1: 6836

Additional results:
For vap, how do the results read?
infection score, replicate 1: 8.74; infection score, replicate 2: 20.2; cell count, replicate 1: 6795; cell count, replicate 2: 5762; outcome: inactive

What did the screen give for CG14022 #1?
infection score, replicate 1: 2.99; infection score, replicate 2: 19.2; cell count, replicate 1: 6745; cell count, replicate 2: 5650; outcome: inactive

With CG14022 #2, what was measured?
infection score, replicate 1: 0.86; infection score, replicate 2: 11.7; cell count, replicate 1: 6479; cell count, replicate 2: 6691; outcome: inactive

What did the screen give for Jupiter #1?
infection score, replicate 1: 4.65; infection score, replicate 2: 4.63; cell count, replicate 1: 7189; cell count, replicate 2: 6969; outcome: inactive

For Jupiter #2, what does the deposit list?
infection score, replicate 1: 22.8; infection score, replicate 2: 27.6; cell count, replicate 1: 4222; cell count, replicate 2: 4517; outcome: inactive

For Jupiter #3, how do the results read?
infection score, replicate 1: 3.35; infection score, replicate 2: 10.4; cell count, replicate 1: 6352; cell count, replicate 2: 5780; outcome: inactive

Which result is listed for Rab14 #1?
infection score, replicate 1: 11.6; infection score, replicate 2: 8.05; cell count, replicate 1: 6012; cell count, replicate 2: 5792; outcome: inactive

What did the screen give for Rab14 #2?
cell count, replicate 1: 289; cell count, replicate 2: 393; outcome: inactive

How did the screen score XRCC1 #1?
infection score, replicate 1: 1.98; infection score, replicate 2: 2.1; cell count, replicate 1: 6307; cell count, replicate 2: 6706; outcome: inactive

What did the screen give for XRCC1 #2?
infection score, replicate 1: 2.89; infection score, replicate 2: 3.51; cell count, replicate 1: 1420; cell count, replicate 2: 1195; outcome: inactive

How did the screen score Rab30 #1?
infection score, replicate 1: 5.64; infection score, replicate 2: 2.15; cell count, replicate 1: 5889; cell count, replicate 2: 976; outcome: inactive

With Rab30 #2, how do the results read?
infection score, replicate 1: 2.58; infection score, replicate 2: 5.46; cell count, replicate 1: 6463; cell count, replicate 2: 6504; outcome: inactive
